Source: the supplement of paper PMC9701192

Tested on: PC9
Assay: mass response relative to vehicle control (EMD distance of treated vs reference mass distribution minus control baseline) (% of mean reference cell mass); higher = larger drug-induced change in single-cell mass distribution (stronger response)
Method: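 Cancer cell lines were treated in vitro with drugs at the listed doses (about 24 h; 0.25% DMSO vehicle). Single-cell buoyant mass was measured on suspended microchannel resonator instruments with CNN image curation, 2500 cells per condition. Mass response is the Earth Mover's Distance to vehicle-treated reference cells as % of mean reference mass.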

Q: Which mass response (0.1 µM) does the source give for `O=P1(N(CCCl)CCCl)NC(SCCS(=O)(=O)O)CCO1` (centres undefined) [Mafosfamide] here?
A: -1.92 ± 4.9

Q: What about the mass response (1 µM) of the same compound?
A: 4.71 ± 9

Q: What about the mass response (10 µM) of the same compound?
A: 12 ± 10

Q: And the mass response (50 µM)?
A: 27.7 ± 8

± gives the uncertainty stated by the source.
